We go through one compound from ChEMBL document CHEMBL1150695, “The synthesis of SO-3, a conopeptide with high analgesic activity derived from Conus striatus” (2003).

The data set concerns Rattus norvegicus. The experiment in a line: Toxicity in rat at 2 ug/kg administered intrathecally daily for 15 days measured after day 15. The conditions noted are these: in vivo, icv_or_intrathecal, 0.002 mg/kg, 360 h.

For the compound `CC[C@H](C)[C@@H]1NC(=O)[C@H](CCCNC(=N)N)NC(=O)[C@H](CO)NC(=O)[C@@H]2CSSC[C@@H]3NC(=O)[C@H](CO)NC(=O)CNC(=O)[C@H]([C@H](C)O)NC(=O)[C@H](CSSC[C@H](N)C(=O)N[C@@H](CCCCN)C(=O)N[C@@H](C)C(=O)N[C@@H](C)C(=O)NCC(=O)N[C@@H](CCCCN)C(=O)N4CCC[C@H]4C(=O)N2)NC(=O)[C@H](CSSC[C@@H](C(N)=O)NC(=O)[C@H](CCCCN)NC(=O)CNC(=O)[C@H](CO)NC(=O)[C@H](CCCNC(=N)N)NC3=O)NC(=O)[C@H](CC(N)=O)NC(=O)[C@H](Cc2ccc(O)cc2)NC(=O)[C@H](C)NC1=O`, the Activity result is on record as “Non-toxic”.
